Measured values taken from publication PMC9088311, “Cyclic Thiosulfonates for Thiol-Mediated Uptake: Cascade Exchangers, Transporters, Inhibitors” (JACS Au, 2022).

Test: Dynamic covalent ring opening with thiol 10, 1H NMR kinetics
Type: physicochemical
Settings: for K, equilibrium of ring opening: phosphate buffer/DMSO-d6 9:1, equimolar 10
Method: The dynamic covalent opening of CTO 3 with thiols yields product 9 with a disulfide and a sulfinate (Figure 3B). Consistent with short chalcogen bonds found in silico, the opening of CTO 3 was instantaneous on an NMR timescale with most thiols. To decelerate ring opening, bulky thiols were considered in combination with lowered pH to deactivate the nucleophile. With N-Ac-D-penicillamine 10, the opening of 5 mM CTO 3 in phosphate buffer/DMSO-d6 9:1 was still immediate at pD 6.7 but became detectable in ^1H NMR spectroscopy kinetics under more acidic conditions. The ring-opening rate constants k^O were estimated by fitting the initial velocities to second-order kinetics. Only lower bound rates were approximated from the earliest determined substrate conversions when reactions were still too fast despite the unfavorable conditions. At pD 5.4, dynamic covalent ring opening of CTO 3 with equimolar tertiary thiol 10 occurred with k^O > 0.49 M^–1 s^–1 and equilibrated at K = 6.0 × 10^3 M^–1 (Table 1, entry 1, Figures S4 and S5). At pD 2.7, further deceleration to k^O = 0.10 M^–1 s^–1 shifted the equilibrium to K = 500 M^–1 (Table 1, entry 2, Figures S6 and S7). […] At equilibrium, the concentration of thiol 10 further decreased slowly due to oxidation into the homodimer (Figure 3C, diamonds).
Equilibrium constants for reactions with two reactants A and B and a product C are […]
3.1.1. Dynamic Covalent Ring Opening with Thiols
General procedure A (at 5 mM): To a solution of deuterated sodium phosphate (200 mM in D 2O, pD 2.7 or 5.4, 180 mM final concentration), a stock solution of substrate (0.10 M in DMSO-d6, 5.0 mM final concentration) was added and stirred. Then a stock solution of 10 (0.10 M in DMSO- d6, 5.0 mM final concentration) was added and vigorously stirred at room temperature. The solution was transferred immediately to an NMR tube and NMR data were recorded repeatedly. The concentration of the substrate or thiol at each time plot was calculated by comparing the integrals of the peaks indicated with arrows in the figures, and plotted. The data points were fitted to obtain k1 with the Equation (S6) or (S7) using Graphpad Prism.
General procedure B (at 2 mM): To a solution of deuterated sodium phosphate (200 mM in D 2O, pD 2.7 or 5.4, 180 mM final concentration), DMSO- d6 (10% DMSO- d6 in the reaction mixture) and a stock solution of substrate (0.10 M in DMSO- d6, 2.0 mM final concentration) were added and stirred. Then a stock solution of 10 (0.10 M in DMSO- d6, 2.0 mM final concentration) was added and vigorously stirred at room temperature. The solution was transferred immediately to an NMR tube and NMR data were recorded repeatedly. The concentration of the substrate or thiol at each time plot was calculated by comparing the integrals of the peaks indicated with arrows in the figures, and plotted. The data points were fitted to obtain k1 with the Equation (S6) or (S7) using Graphpad Prism.
General procedure C (for thiosulfinates): To a solution of deuterated sodium phosphate (200 mM in D 2O, pD 5.4, 170 mM final concentration), a stock solution of substrate (0.10 M in DMSO- d6, 5.0 mM final concentration) was added and stirred. Then a stock solution of 10 (0.10 M in DMSO- d6, 10 mM final concentration) was added and vigorously stirred at room […]
data points were fitted to obtain k1 with the Equation (S14) or (S16) using Graphpad Prism. […]
3.1.2. Dependence of Ring Opening on Proticity
A mixture of deuterated phosphoric acid and NaOD (30% in D 2O), which gave pD 2.7 in D2O, was used as buffer in all solvent mixtures. To a solution of deuterated sodium phosphate (20 mM final concentration) in a mixture of D 2O and DMSO- d6 (540 μL, final D 2O content: […]
concentration) was added and stirred. Then a stock solution of 10 (0.10 M in DMSO- d6, 5.0 mM final concentration) was added and vigorously stirred at room temperature. The solution was transferred immediately to an NMR tube and 1H NMR data were recorded repeatedly. […]

Q: Which “K, equilibrium constant for ring opening and closing” value (“K, equilibrium constant” below) (pD 2.7, 90% D2O, 2 mM) does the source give for `CC1(C)O[C@H]2CSS(=O)(=O)C[C@H]2O1` [Compound 13] here?
A: 17 10^3 M^–1

Q: For `O=S1(=O)C=C[C@@H](O)CS1` [Compound 12], which “K, equilibrium constant” value (pD 2.7, 90% D2O, 2 mM) is on record?
A: 21 10^3 M^–1

Q: For `O=S1(=O)C[C@H](O)[C@@H](O)CS1` [Compound 15], which “K, equilibrium constant” value (pD 2.7, 90% D2O, 5 mM) is on record?
A: 2.0 10^3 M^–1

Q: With `O=C1O[C@H]2CSS(=O)(=O)C[C@H]2O1` [Compound 11] as the compound, how does the “K, equilibrium constant” value (pD 2.7, 90% D2O, 2 mM) read?
A: >170 10^3 M^–1

Q: For `O=S1(=O)C[C@H](O)[C@H](O)CS1` (stereo in doubt) [Compound 3, (4S,5R)-4,5-dihydroxy-1,2-dithiane-1,1-dioxide], which “K, equilibrium constant” value (estimated pD 2.7, Na+ phosphate 20 mM, 2% D2O, 5 mM) is on record?
A: 0.73 10^3 M^–1

Q: What about the “K, equilibrium constant” value (estimated pD 2.7, Na+ phosphate 20 mM, 5% D2O, 5 mM) of the same compound?
A: 0.94 10^3 M^–1

Q: What about the “K, equilibrium constant” value (estimated pD 2.7, Na+ phosphate 20 mM, 8% D2O, 5 mM) of the same compound?
A: 1.3 10^3 M^–1

Q: What about the “K, equilibrium constant” value (estimated pD 2.7, Na+ phosphate 20 mM, 10% D2O, 5 mM) of the same compound?
A: 2.1 10^3 M^–1

Q: And the “K, equilibrium constant” value (estimated pD 2.7, Na+ phosphate 20 mM, 30% D2O, 5 mM)?
A: 2.3 10^3 M^–1

Q: And the “K, equilibrium constant” value (estimated pD 2.7, Na+ phosphate 20 mM, 50% D2O, 5 mM)?
A: 1.8 10^3 M^–1

Q: What about the “K, equilibrium constant” value (estimated pD 2.7, Na+ phosphate 20 mM, 70% D2O, 5 mM) of the same compound?
A: 1.0 10^3 M^–1

Q: And the “K, equilibrium constant” value (estimated pD 2.7, Na+ phosphate 20 mM, 90% D2O, 5 mM)?
A: 0.71 10^3 M^–1

Q: And the “K, equilibrium constant” value (pD 2.7, 90% D2O, 5 mM)?
A: 0.50 ^j 10^3 M^–1

Q: And the “K, equilibrium of ring opening” value (pD 2.7, 5 mM)?
A: 500 M^–1

Q: And the “K, equilibrium constant” value (pD 5.4, 90% D2O, 5 mM)?
A: 6.0 10^3 M^–1

Q: And the “K, equilibrium of ring opening” value (pD 5.4, 5 mM)?
A: 6.0 × 10^3 M^–1
